Pooled drug test results. Numbers come from NIAID ChemDB, via PubChem.

Shared fields: whole-cell or culture tests; species: HIV-2; cells: CEM; endpoint: EC50

ECn is the concentration giving n% inhibition of infection, replication or growth. Neighbouring rows are from separate reports. Blank or dashed fields: not listed here.

smiles	strain	read by	setting	result
COC(=O)CNP(=O)(OC[C@@H]1C=C[C@H](n2cc(C)c(=O)[nH]c2=O)O1)Oc1ccccc1	-	-	-	6 µM
Nc1nc(N)c(C2CC2)c(OCCOCP(=O)(O)O)n1	ROD	syncytia	-	≥300 µM
Nc1nc(NC2CCCCC2)c2ncn(CCOCP(=O)(O)O)c2n1	ROD	cytopathic effect / MTT	-	>20 µg/mL
Cc1ccc(C)c(CS(=O)(=O)c2cccc[n+]2[O-])c1	ROD	cytopathic effect	-	10 µg/mL
CCn1c(=O)cnn([C@H]2C[C@H](O)[C@@H](CO)S2)c1=O	ROD	syncytia	-	>100 µM
Cc1cn([C@@H]2O[C@H](CO[Si](C)(C)C(C)(C)C)C3(OS(=O)(=O)C=C3N)[C@H]2O[Si](C)(C)C(C)(C)C)c(=O)nc1N	-	syncytia	-	>13.5 µM
C[C@H](Cn1cnc2c(N)ncnc21)OCP(=O)(O)O	ROD	syncytia	-	2.5 µM
CCO[C@]12CS(=O)(=O)O[C@@]13C(CN2)O[C@@H](n1cc(C)c(=O)[nH]c1=O)[C@@H]3O[Si](C)(C)C(C)(C)C	ROD	-	-	>50 µM
Nc1nc(N2CCCC2)c2ncn(CCOCP(=O)(O)O)c2n1	ROD	cytopathic effect / MTT	-	1.65 µg/mL
Cc1cn(C2CC(N=[N+]=[N-])C(COC(C(=O)O)P(=O)(O)OP(=O)(O)OP(=O)(O)O)O2)c(=O)[nH]c1=O	ROD	cytopathic effect / syncytia	-	≥100 µg/mL
COC(=O)CCCCn1c(=O)c(C)cn([C@@H]2O[C@H](CO[Si](C)(C)C(C)(C)C)[C@@H](O)[C@H]2O[Si](C)(C)C(C)(C)C)c1=O	ROD	syncytia	-	>10 µM
Cc1ccc(C)c(CS(=O)c2ccc(Cl)c[n+]2[O-])c1	ROD	cytopathic effect	-	2 µg/mL
CCOC(=O)C(C(=O)OCC)=C1C=CN([C@H]2C[C@H](N=[N+]=[N-])[C@@H](CO)O2)C(=O)N1	ROD	-	-	>300 µM
Nc1nc(N2CCCCC2)c2ncn(CCOCP(=O)(O)O)c2n1	ROD	cytopathic effect / MTT	-	>4 µg/mL
Cc1cn([C@@H]2O[C@H](CO[Si](C)(C)C(C)(C)C)[C@@H](O)[C@H]2O[Si](C)(C)C(C)(C)C)c(=O)n(CCC(=O)O)c1=O	ROD	syncytia	-	>10 µM
C=CCNc1nc(N)nc2c1ncn2CCOCP(=O)(O)O	ROD	cytopathic effect / MTT	-	>0.032 µg/mL
CC(=O)Oc1ccc(COP(=O)(OCc2ccc(OC(=O)c3ccc(C)cc3)cc2)OP(=O)(O)OCC2C=C[C@H](n3cc(C)c(=O)[nH]c3=O)O2)cc1	ROD	syncytia	-	1.05 µM
Nc1nc(N)c(Cl)c(OCCOCP(=O)(O)O)n1	ROD	syncytia	-	4.4 µM
C=CCO[C@]12CS(=O)(=O)O[C@@]13[C@@H](CN2)O[C@@H](n1cc(C)c(=O)[nH]c1=O)[C@@H]3O[Si](C)(C)C(C)(C)C	ROD	-	-	>50 µM
Nc1nc2c(nc(Br)n2CCOCP(=O)(O)O)c(=O)[nH]1	-	syncytia	4 d	>0.16 µg/mL
CCOC(=O)C(C(=O)OCC)=C1NC(=O)N([C@H]2C[C@H](N=[N+]=[N-])[C@@H](CO)O2)C=C1C	ROD	-	-	40 µM
Cc1cn([C@@H]2O[C@H](CO)[C@@H](O)[C@@H]2O)c(=O)n(C)c1=O	ROD	microscopy	-	>400 µg/mL
C[C@H](CC1CNC2C1CC(N)CN2N)OCP(=O)(O)O	ROD	cytopathic effect / MTT	-	>100 µg/mL
O=C1c2sc(-c3ccccc3)cc2N(COCCO)S(=O)(=O)N1Cc1ccccc1	-	-	-	>400 µg/mL
O=c1cnn([C@H]2C[C@H](O)[C@@H](CO)S2)c(=O)[nH]1	ROD	syncytia	-	>100 µM
CC(C)(C)[Si](C)(C)OC[C@@H]1CC[C@H](n2cnc3c(=O)n(CC(=O)O)cnc32)O1	ROD	syncytia	-	>200 µM
Cc1cn([C@H]2C[C@H](O)[C@@H](CO)O2)c(=O)n(C)c1=O	ROD	microscopy	-	>400 µg/mL
CC(O)c1nc(=O)n([C@@H]2O[C@H](CO)[C@H]3OC(C)(C)O[C@H]32)cc1CO	ROD	-	-	>300 µM
CCC(CC)(NP(=O)(OC[C@@H]1C=C[C@H](n2cc(C)c(=O)[nH]c2=O)O1)Oc1ccccc1)C(=O)OC	-	-	-	28.3 µM
Cc1cn([C@H]2C=C[C@@H](CO)O2)c(=O)[nH]c1=O	-	cytopathic effect	-	0.77 µM
Cc1cn([C@H]2C=C[C@@H](CO)O2)c(=O)[nH]c1=O	-	-	-	0.25 µM
CCCCCCCCCC(=O)Oc1ccc(COP(=O)(OCc2ccc(OC(C)=O)cc2)OP(=O)(O)OCC2C=C[C@H](n3cc(C)c(=O)[nH]c3=O)O2)cc1	ROD	syncytia	-	1.05 µM
CO[C@]12CS(=O)(=O)O[C@@]13[C@@H](CN2)O[C@@H](n1cc(C)c(=O)[nH]c1=O)[C@@H]3O	ROD	-	-	>250 µM
Cc1c(N)nc(N)nc1OCCOCP(=O)(O)O	ROD	syncytia	-	0.27 µM
Nc1nc(NC2CC2)c2ncn(CCOCP(=O)(O)O)c2n1	ROD	cytopathic effect / MTT	-	0.16 µg/mL
CNc1nc(=O)n([C@@H]2O[C@H](CO[Si](C)(C)C(C)(C)C)C3(OS(=O)(=O)C=C3N)[C@H]2O[Si](C)(C)C(C)(C)C)cc1C	-	syncytia	-	>33 µM
COC(=O)CC(OP(=O)(OC[C@@H]1C=C[C@H](n2cc(C)c(=O)[nH]c2=O)O1)OC(CC(=O)OC)c1ccc(OC(C)=O)cc1)c1ccc(OC(C)=O)cc1	-	-	-	0.3 µM
Nc1cc(OC[C@H](CO)OCP(=O)(O)O)nc(N)n1	ROD	syncytia	-	14 µM
Cc1ccc(C)c(CSc2c(Cl)ccc[n+]2[O-])c1	EHO	cytopathic effect	-	≥20 µg/mL
Cc1cn([C@H]2C[C@H](F)[C@@H](CO)O2)c(=O)n(C)c1=O	ROD	microscopy	-	>400 µg/mL
O=c1nc(NO)c(CCCl)cn1[C@H]1C[C@H](O)[C@@H](CO)O1	ROD	-	-	>300 µM
Nc1nc(NC2CC2)c2ncn([C@H]3C=C[C@@H](CO)C3)c2n1	ROD	syncytia	-	4.2 µM
O=C1c2cc(-c3ccccc3)sc2N(Cc2ccccc2)S(=O)(=O)N1COCc1ccccc1	-	-	-	>400 µg/mL
N#CCc1c(N)nc(N)n(CCOCP(=O)(O)O)c1=O	ROD	syncytia	-	≥300 µM
CC(C)(C)[Si](C)(C)OCC1O[C@@H](NC(=O)NC(=O)c2ccccc2)C(O[Si](C)(C)C(C)(C)C)C12OS(=O)(=O)C=C2N	ROD	syncytia	-	>10 µM
CCCCCCn1c(=O)cnn([C@H]2C[C@H](O)[C@@H](CO)S2)c1=O	ROD	syncytia	-	>100 µM
Cc1cn([C@@H]2O[C@@H]3CN[C@@]4(OCc5ccccc5)CS(=O)(=O)O[C@@]34[C@H]2O)c(=O)[nH]c1=O	ROD	-	-	>250 µM
CC(C)(C)[Si](C)(C)OC[C@H]1O[C@@H](n2cc(I)c(=O)[nH]c2=O)[C@H](O[Si](C)(C)C(C)(C)C)C12OS(=O)(=O)C=C2N	-	syncytia	-	>5.7 µM
CCCCC(=O)Oc1ccc(COP(=O)(OCc2ccc(OC(=O)c3ccc(C(F)(F)F)cc3)cc2)OP(=O)(O)OCC2C=C[C@H](n3cc(C)c(=O)[nH]c3=O)O2)cc1	ROD	syncytia	-	1.05 µM
NC1=NS(=O)(=O)N(Cc2ccccc2)c2nc[nH]c21	ROD	syncytia	-	>100 µg/mL
[N-]=[N+]=N[C@H]1C[C@H](n2cc(CCO)c(=O)[nH]c2=O)O[C@@H]1CO	ROD	-	-	>300 µM
Cc1cn([C@@H]2O[C@H](CO[Si](C)(C)C(C)(C)C)[C@@H](O)[C@H]2O[Si](C)(C)C(C)(C)C)c(=O)n(CCCCC(=O)O)c1=O	ROD	syncytia	-	>10 µM
Nc1nc(N)c(CC(=O)O)c(OCCOCP(=O)(O)O)n1	ROD	syncytia	-	≥300 µM
CCCC[C@H](NP(=O)(OC[C@@H]1C=C[C@H](n2cc(C)c(=O)[nH]c2=O)O1)Oc1ccccc1)C(=O)OC	-	-	-	0.69 µM
CC(=O)OCCOCN1c2nc(Cc3ccccc3)[nH]c2C(N)=NS1(=O)=O	ROD	syncytia	-	8 µg/mL
O=c1[nH]c(=S)cnn1[C@H]1C[C@H](O)[C@@H](CO)S1	ROD	syncytia	-	>100 µM
O=C1c2sc(-c3ccccc3)cc2NS(=O)(=O)N1COCCO	-	-	-	>400 µg/mL
COC(=O)[C@H](C)NP(=O)(OC[C@@H]1C=C[C@H](n2cnc3c(=O)[nH]c(N)nc32)C1)Oc1ccccc1	ROD	syncytia	-	0.85 µM
O=C1c2sc(-c3ccccc3)cc2NS(=O)(=O)N1Cc1ccccc1	-	-	-	>400 µg/mL
Cc1cn([C@@H]2O[C@@H]3CN[C@@]4(O[Si](C)(C)C(C)(C)C)CS(=O)(=O)O[C@@]34[C@H]2O[Si](C)(C)C(C)(C)C)c(=O)[nH]c1=O	ROD	-	-	>2 µM
O=c1nc2c(cn1[C@@H]1O[C@H](CO)[C@@H](O)[C@H]1O)CON2	ROD	-	-	>300 µM
Nc1nc2c(ncn2COC(CO)CO)c(=O)[nH]1	-	-	-	>400 µg/mL